From publication PMC12394453 (Signal Transduction and Targeted Therapy, 2025)

Target: soluble recombinant NiV-G protein (Bangladesh strain) (Nipah virus, Bangladesh isolate …, UniProt Q4VCP5, strain)

B1: chimeric antibody 14F8 (variable regions of mouse m14F8 on a human IgG1 constant region backbone) (antibody, V domains shown)
VH: QVQLKESGPGLVAPSQSLSITCTVSGFSLTSYDISWIRQPPGKGLEWLGVIWTGGVTNYNSAFLSRLSISKDNSKSQVFLKMNSLQTDDTAIYYCVREGDWFFDVWGAGTTVTVSS
VL: DVLMTQTPLSLPVSLGDQASISCRSSQSIVHSNGNTYLEWYLQKPGQSPQLLIYKVSNRFSGVPDRFSGSGSGTDFTLKINRVEAEDLGLYYCFQASHVPYTFGGGTKLEIK
notes: also called Humanized 14F8; m14F8 (mouse parent)
Kd: 580 pM
